According to patent publication US9101635B2 (priority 2009, dated 2015):

Columns and labels:
[1] = system: HIV/EBOV-GP pseudotype virus; type: cell-based, EBOV Zaire strain
[2] = system: recombinant Zaire EBOV expressing green fluorescent protein (GFP-ZEBOV); type: cell-based, EBOV (Zaire subtype, 1995 strain); conditions: for GFP-ZEBOV SI: ratio CC50 / IC50

| SMILES | HIV/EBOV-GP SI [1] | Infectious EBOV SI [2] | HIV/EBOV-Gp SI [1] | GFP-ZEBOV SI [2] |
| --- | --- | --- | --- | --- |
| COc1ccc(OC)c(NC(=O)CC(c2ccc(OC)cc2OC)S(=O)(=O)c2ccccc2)c1 (stereo not drawn) [I] | 12 | 9 |  |  |
| CCOc1ccc(NC(=O)CSc2nnc(COc3cccc(N(C)C)c3)n2-c2ccccc2)cc1 [K] | 98 |  |  |  |
| O=C(Nc1ccc(Cl)c(Cl)c1)c1ccc([N+](=O)[O-])o1 [E] |  |  | 2.59 | 2.75 |
| CC[C@@]1(O)C(=O)OCc2c1cc1n(c2=O)Cc2cc3ccccc3nc2-1 [C] |  |  | 25 | 2.95 |
| CCCN(C)c1c([N+](=O)[O-])cc([N+](=O)[O-])c2cccnc12 [A, 5,7-dinitro-8-[methyl(propyl)amino]quinoline] |  |  | 1.6 | 2 |
| COc1cccc(C(CC(=O)c2ccc(Cl)cc2)C(C#N)C#N)c1 (stereo not drawn) [B] |  |  | 3.28 | 5.15 |
| FC(F)C(F)(F)C1=Nc2ccccc2N=C(c2ccccc2)C1 [Compound G] | 6 | 6 | 6.19 | 5.5 |
| Cc1ccc(N(c2ccc(C)cc2)c2cccnc2)cc1 [H] |  |  | 2.12 | 1.1 |
| O=c1c2ccccc2nc(/C=C/c2ccc([N+](=O)[O-])o2)n1-c1cccc(C(F)(F)F)c1 [D] |  |  | 27.2 | 4.03 |
| N=c1c2c(-c3ccccc3)c(-c3ccccc3)n(Cc3ccco3)c2ncn1CCCn1ccnc1 [F] |  |  | 2.2 | 3.2 |
